This passage reports Relative Activity, IVTT (ratio (IC50 WT / IC50 variant)) results from patent publication US20090010966.

For the data set, the system named is elongation factor 2 (EF2).

As to wild type DT382 (no sequence given), the Relative Activity, IVTT (ratio (IC50 WT / IC50 variant)) is 1.
